In ChEMBL document CHEMBL3286128 (J Med Chem, 2014):

Experiments:
[1] = test system: Human immunodeficiency virus 1; test: Ratio of EC50 for raltegravir-resistant HIV-1 harboring integrase Y143R mutant infected in human HOS cells to EC50 for HIV-1 harboring integrase wild type integrase infected in human HOS cells; format: functional
[2] = target: Human immunodeficiency virus type 1 integrase (Human immunodeficiency virus 1, UniProt Q7ZJM1)

SMILES | Ratio EC50 [1] | IC50 [2] [µM]
O=C(NCc1ccc(F)cc1F)c1c(Nc2ccccc2)c2cccnc2n(O)c1=O | 2 | –
COC(=O)[C@H](C)Nc1c(C(=O)NCc2ccc(F)cc2F)c(=O)n(O)c2ncccc12 | – | 7.4
COC(=O)[C@@H](Nc1c(C(=O)NCc2ccc(F)cc2F)c(=O)n(O)c2ncccc12)c1ccccc1 | – | 16.7
